{"source": "PubChem BioAssay AID504761 (Drosophila RNAi Screening Center, 2011)", "screen": "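Insect host genes that dengue virus relies on to spread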 (primary screen)", "cell system": "D.Mel-2 cells from Drosophila", "reagent": "long dsRNA against Drosophila genes", "treatment": "infection with dengue virus type 2; dose and infection time not stated", "read-out": "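Cells stained for dengue envelope protein and imaged; percent of infected cells per well on duplicate plates, ranked by infection, with stained nuclei counted for cell number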", "reading the numbers": "infection score: higher = more virus-infected cells; cell count: higher = more cells in the well", "call rule": "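Low infection ranks in the two replicates (chance level up to 0.065) followed by a retest with a 1.5-fold or larger significant decrease, p below 0.05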", "calls": "active = confirmed: knock-down lowers infection; inactive = not picked or not confirmed", "note": "In all, the deposit lists about 22,000 reagents; shown is a random part of those with a known target gene and a result. In the full data, 116 (0.52%) got an active call. 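Calls depend on retest data that are not deposited; infection was ranked per plate without normalising between plates; the unit of the infection score is not given.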 Raw values are not corrected between plates. Unmarked entries are inactive. Names joined by + are all predicted targets of the reagent. The record does not give: the amount of reagent, the time to read-out."}
{"gene": "Ir54a + sub", "dsRNA": "DRSC06459", "infection score, replicate 1": 7, "infection score, replicate 2": 3.9, "cell count, replicate 1": 6660, "cell count, replicate 2": 6951}
{"gene": "CG14990", "dsRNA": "DRSC08449", "infection score, replicate 1": 4.3, "infection score, replicate 2": 5.31, "cell count, replicate 1": 5810, "cell count, replicate 2": 5541}
{"gene": "CG13437", "dsRNA": "DRSC06397", "infection score, replicate 1": 2.93, "infection score, replicate 2": 3, "cell count, replicate 1": 6241, "cell count, replicate 2": 6039}
{"gene": "CG33460", "dsRNA": "DRSC05570", "infection score, replicate 1": 1.7, "infection score, replicate 2": 3.36, "cell count, replicate 1": 6488, "cell count, replicate 2": 6156}
{"gene": "Drsl1 (Drosomycin-like 1)", "dsRNA": "DRSC22490", "infection score, replicate 1": 0.66, "infection score, replicate 2": 5.78, "cell count, replicate 1": 5485, "cell count, replicate 2": 6039}
{"gene": "cerv (cervantes)", "dsRNA": "DRSC19681", "infection score, replicate 1": 1.95, "infection score, replicate 2": 8.33, "cell count, replicate 1": 6255, "cell count, replicate 2": 6614}
{"gene": "cerv (cervantes)", "dsRNA": "DRSC25320", "infection score, replicate 1": 1.52, "infection score, replicate 2": 0.79, "cell count, replicate 1": 6137, "cell count, replicate 2": 6609}
{"gene": "CG7627", "dsRNA": "DRSC03065", "infection score, replicate 1": 1.26, "infection score, replicate 2": 8.45, "cell count, replicate 1": 6450, "cell count, replicate 2": 6403}
{"gene": "CG7627", "dsRNA": "DRSC24481", "infection score, replicate 1": 9.81, "infection score, replicate 2": 2.78, "cell count, replicate 1": 6136, "cell count, replicate 2": 6760}

A portion taken from the entries so far, as a working copy:
{"gene": "cerv (cervantes)", "dsRNA": "DRSC19681", "infection score, replicate 1": 1.95, "infection score, replicate 2": 8.33, "cell count, replicate 1": 6255, "cell count, replicate 2": 6614}
{"gene": "cerv (cervantes)", "dsRNA": "DRSC25320", "infection score, replicate 1": 1.52, "infection score, replicate 2": 0.79, "cell count, replicate 1": 6137, "cell count, replicate 2": 6609}

The list goes on:
{"gene": "Gr68a (Gustatory receptor 68a)", "dsRNA": "DRSC10803", "infection score, replicate 1": 6.46, "infection score, replicate 2": 6.64, "cell count, replicate 1": 5525, "cell count, replicate 2": 6532}
{"gene": "CG33695 + cana", "dsRNA": "DRSC01163", "infection score, replicate 1": 5.52, "infection score, replicate 2": 1.01, "cell count, replicate 1": 6102, "cell count, replicate 2": 5752}
{"gene": "CG33695 + cana", "dsRNA": "DRSC03503", "infection score, replicate 1": 20.8, "cell count, replicate 1": 3422, "cell count, replicate 2": 513}
{"gene": "IntS8 (Integrator 8)", "dsRNA": "DRSC07417", "infection score, replicate 1": 4.15, "infection score, replicate 2": 6.26, "cell count, replicate 1": 6294, "cell count, replicate 2": 6433}
{"gene": "CG32599", "dsRNA": "DRSC19433", "infection score, replicate 1": 3.34, "infection score, replicate 2": 5.87, "cell count, replicate 1": 6225, "cell count, replicate 2": 5992}
{"gene": "CG32599", "dsRNA": "DRSC26978", "infection score, replicate 1": 4.52, "infection score, replicate 2": 2.89, "cell count, replicate 1": 6310, "cell count, replicate 2": 6468}
{"gene": "PlexB (Plexin B)", "dsRNA": "DRSC17177", "infection score, replicate 2": 6.63, "cell count, replicate 1": 288, "cell count, replicate 2": 1417}
{"gene": "Ptpmeg (Protein tyrosine phosphatase Meg)", "dsRNA": "DRSC08684", "infection score, replicate 1": 3.96, "infection score, replicate 2": 5.92, "cell count, replicate 1": 6771, "cell count, replicate 2": 6827}
{"gene": "Ptpmeg (Protein tyrosine phosphatase Meg)", "dsRNA": "DRSC26348", "infection score, replicate 1": 6.51, "infection score, replicate 2": 2.83, "cell count, replicate 1": 6639, "cell count, replicate 2": 6776}
{"gene": "GstE14 (Glutathione S transferase E14)", "dsRNA": "DRSC06881", "infection score, replicate 1": 9.11, "infection score, replicate 2": 12.4, "cell count, replicate 1": 6147, "cell count, replicate 2": 5601}
{"gene": "GstE14 (Glutathione S transferase E14)", "dsRNA": "DRSC26779", "infection score, replicate 1": 1, "infection score, replicate 2": 8.79, "cell count, replicate 1": 6681, "cell count, replicate 2": 5953}
{"gene": "Aduk (Another Drosophila Unc-51-like kinase)", "dsRNA": "DRSC16451", "infection score, replicate 1": 2.66, "infection score, replicate 2": 13.7, "cell count, replicate 1": 5555, "cell count, replicate 2": 6350}
{"gene": "Aduk (Another Drosophila Unc-51-like kinase)", "dsRNA": "DRSC29838", "infection score, replicate 1": 2.62, "infection score, replicate 2": 4.15, "cell count, replicate 1": 6519, "cell count, replicate 2": 6680}
